Measurements published in US20100292343A1, “USE OF A DIALKYLKETONE PEROXIDE AS BIOCIDAL, STERILIZING, ANTISEPTIC, DISINFECTING AND ANTI-PARASITIC AGENT” (published 2010).
Some compounds may have been tested in ways that are not shown here.

How the values were obtained:
[1] = test system: Enterococcus hirae ATCC 8043; assay: Bactericidal activity, EN 1276 dilution-neutralisation
[2] = test system: Pseudomonas aeruginosa ATCC 15442; assay: as above
[3] = test system: Escherichia coli ATCC 10536; assay: as above
[4] = test system: Staphylococcus aureus ATCC 6538; assay: as above
[5] = test system: Candida albicans ATCC 10321; assay: Fungicidal activity, EN 1275
[6] = test system: Aspergillus niger ATCC 16404; assay: Fungicidal activity, EN 1275
[7] = test system: Mycobacterium terrae ATCC 15755; assay: Mycobactericidal activity, carrier disk ASTM E-2197-02; conditions: 2% and 4% at 5, 15 and 30 minutes

## methyl ethyl ketone peroxide
[1]; 0.06% (v/v), t = 5 min
  Na: number of CFU/ml in the assay mixture: 24 × 10^2 CFU/ml
  R: Reduction of viability: 0.1 × 10^5
[1]; 0.25% (v/v), t = 15 min
  R: Reduction of viability: ≧10^6
[2]; 0.06% (v/v), t = 5 min
  R: Reduction of viability: 24 × 10^5
[2]; 0.125% (v/v), t = 5 min
  Na: number of CFU/ml in the assay mixture: 0 CFU/ml
[2]; 0.25% (v/v), t = 5 min
  Na: number of CFU/ml in the assay mixture: 0 CFU/ml
[2]; within 5, 15 and 30 minutes at 0.06% in hard water
  bactericidal activity (conclusion): bactericidal activity
[3]; 0.06% (v/v), t = 15 min
  Na: number of CFU/ml in the assay mixture: 0 CFU/ml
[3]; 0.25% (v/v), t = 5 min
  Na: number of CFU/ml in the assay mixture: 0 CFU/ml
[3]; 0.25% (v/v), t = 30 min
  Na: number of CFU/ml in the assay mixture: 0 CFU/ml
  R: Reduction of viability: ≧10^6
[4]; 0.06% (v/v), t = 15 min
  R: Reduction of viability: 0.08 × 10^5
[4]; 0.125% (v/v), t = 5 min
  Na: number of CFU/ml in the assay mixture: 2.6 × 10^2 CFU/ml
[4]; 0.125% (v/v), t = 30 min
  R: Reduction of viability: ≧10^6
[4]; 0.25% (v/v), t = 30 min
  R: Reduction of viability: ≧10^6
[5]; 0.06% (v/v), t = 30 min
  R: Reduction of viability: 0.9 × 10^4
[5]; 0.125% (v/v), t = 5 min
  R: Reduction of viability: 15 × 10^4
[5]; 0.125% (v/v), t = 30 min
  Na: number of CFU/ml in the assay mixture: 0 CFU/ml
[5]; 0.25% (v/v), t = 15 min
  Na: number of CFU/ml in the assay mixture: 0 CFU/ml
[6]; 0.06% (v/v), t = 15 min
  Na: number of CFU/ml in the assay mixture: 0.2 × 10^2 CFU/ml
[6]; 0.06% (v/v), t = 30 min
  Na: number of CFU/ml in the assay mixture: 0.6 × 10^2 CFU/ml
[6]; 0.25% (v/v), t = 5 min
  Na: number of CFU/ml in the assay mixture: 0 CFU/ml
[6]; norm EN 1275
  fungicidal activity (conclusion): fungicidal activity
[7]
  mycobactericidal effect (conclusion): mycobactericidal effect
